The text below walks through data of the supplement of paper PMC3842684.

The structures appear in SMILES notation.

Experiment [1] relates to P. falciparum NF54-pfs16-GFP early (I-III) stage gametocytes. The settings on record: stage: early (I-III) gametocyte; incubation 72 h. On the procedure:
(§1)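 MMV Malaria Box compounds active in the primary screen were retested in dose-response against P. falciparum NF54-pfs16-GFP early (I-III) or late (IV-V) gametocytes, 72 h, 37 C, viable gametocytes counted by confocal imaging; IC50 from an unconstrained 4-parameter fit. Compounds with no plateau have no IC50 and are left out.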

Experiment [2] has as its system P. falciparum NF54-pfs16-GFP late (IV-V) stage gametocytes. The following applies: stage: late (IV-V) gametocyte; incubation 72 h. On the procedure: as §1

In the case of `CCC1(C)CC(CCNCc2ccccc2O)(c2ccc(C)cc2)CCO1` (stereo not drawn), the “IC50, viable gametocyte number” value in experiment [1] is 1390 nM; in experiment [2] it was 676 nM. As to `c1ccc2c(NCCCCCCNc3c4c(nc5ccccc35)CCCC4)c3c(nc2c1)CCCC3`, the “IC50, viable gametocyte number” value in experiment [1] stood at 1430 nM.
